# Measurements taken from PubChem BioAssay AID651644 (National Center for Advancing Translational Sciences (NCATS), 2012).
# The entries are a selection whose mix differs from that of the whole data set. Calls of active or inactive are those of the source. Calls come from the whole dose curve; as a rule, active = well fitted falling curve with a large enough effect; inconclusive = small, poorly fitted or top-dose-only effect; inactive = no such curve, though single readings can be large or run the other way.
# Assay: qHTS Assay for Inhibitors of the HIV-1 protein Vpr; note: nearly all actives have a fitted effect of over 50% in size
# Conditions: S. pombe RE007 Vpr strain, BacTiter-Glo ATP luminescence, 24 h; at 92.2 µM (top of the series)
# % is set by controls: 0 for no effect and ±100 for the full control effect.
row,Structure (SMILES),"activity change, negative = less growth"
1,O=C(NCC1(N2CCCCC2)CCCCC1)c1ccc(Cl)s1,inactive: -18.3%
2,N#CC1(Nc2ccccc2)CCN(Cc2ccccc2)CC1,inactive: 20.3%
3,O=C1C(O)=C([N+](=O)[O-])C(=O)C(O)=C1[N+](=O)[O-],inactive: -22.7%
4,O=C(NCC1(N2CCCCC2)CCCCC1)c1ccc(=O)[nH]c1,inactive: -1.69%
5,CCCCn1nnnc1C(c1cccs1)N1CCC(n2c(=O)[nH]c3ccccc32)CC1 (configuration not stated),inactive: 0.43%
6,CCCCn1nnnc1C(CC)N1CCC(n2c(=O)[nH]c3ccccc32)CC1 (configuration not stated),inactive: -1.28%
7,O=C(NCC1(N2CCCCC2)CCCCC1)c1cccs1,inactive: -10.7%
8,COc1ccc(C(=O)NCC2(N3CCCCC3)CCCCC2)cc1,inactive: -8.33%
9,CCC(c1nnnn1C1CCCC1)N1CCC(n2c(=O)[nH]c3ccccc32)CC1 (configuration not stated),inactive: -2.12%
10,COc1ccc(C(=O)NCC2(N3CCCCC3)CCCCC2)c(OC)c1OC,inactive: 6.06%
11,CC(C)(C)OC(=O)N1CCC(N(C(=O)c2ccccc2)c2ccc(F)cc2)CC1,inactive: 4.11%
12,CSc1ccccc1C(=O)NCC1(N2CCCCC2)CCCCC1,inactive: -23.4%
13,Cc1cccc(NC2(C#N)CCN(Cc3ccccc3)CC2)c1,inactive: -5.91%
14,O=c1[nH]c2ccccc2n1C1CCN(C(c2ccccc2)c2nnnn2C2CCCCC2)CC1 (configuration not stated),inactive: -10.8%
15,O=c1[nH]c2ccccc2n1C1CCN(C(c2cccc3ccccc23)c2nnnn2C2CCCC2)CC1 (configuration not stated),inactive: 9.11%
16,COc1cc(C(=O)NCC2(N(C)C)CCCCC2)ccc1OC(F)F,inactive: 28.6%
17,CCOC(=O)N1CCC(Nc2cccc(C)c2)CC1,inactive: -3.32%
18,CCOc1ccc(C)cc1CN(CCCl)CCCl,inactive: -21.7%
19,CC(C)(C)n1nnnc1C(c1ccccc1)N1CCC(n2c(=O)[nH]c3ccccc32)CC1 (configuration not stated),inactive: -2.28%
20,O=C1CCN(Cc2ccccc2)CC1,inactive: -17.3%
21,O=C(NCC1(N2CCCCC2)CCCCC1)c1ccc(F)cc1,inactive: -4.12%
22,CCCCn1nnnc1C(c1cc2ccccc2o1)N1CCC(n2c(=O)[nH]c3ccccc32)CC1 (configuration not stated),inactive: 7.26%
23,O=P1(N(CCCl)CCCl)SCCCS1,inactive: 2.89%
24,CCCCOc1ccc(C(=O)NCC2(N3CCOCC3)CCCCC2)cc1,inactive: -1.83%
25,COc1ccc(NC2CCN(CCc3ccccc3)CC2)c(OC)c1,inactive: -4.76%
26,CCOC(=O)N1CCC(Nc2ccc(F)cc2)CC1,inactive: -4.05%
27,O=C(NCC1(N2CCCCC2)CCCCC1)c1cccc(C(F)(F)F)c1,inactive: -1.63%
